Source: patent US20110300168A1, “COMPOSITIONS AND METHODS FOR INDUCING AN IMMUNE RESPONSE AGAINST INFLUENZA ANTIGENS” (THE JOHNS HOPKINS UNIVERSITY, priority 2010, published 2011)

What was measured:
Type in all cases: cell-based, human
CD8+ T cells [1] = conditions: control donors aged 21-42, wk 0 directly ex vivo, peptide pulsed T2 cells 1:1; positive if SFC greater than 5 per 100000 CD8+ T cells, p<0.05
CD8+ T cells [2] = test system: CD8+ T cells
CD8+ T cells [3] = test system: CD8+ T cells; remark: listed apart in the source

Which “number of donors who responded by IFNγ ELISpot” value (CD8+ T cells [1]) does the source give for “FMYSDFHFI (listed as Influenza virus) [PA46-54, subdominant influenza peptide, pool 2]” here?
The value was 2.

And the “CD8+ T cells specific for the epitope by A2-Ig dimer staining” value (CD8+ T cells [2])?
The value was 65%.

What about the “control donors in whom the epitope elicited a response” value (CD8+ T cells [3]; 12 control donors, aAPC assay, ICS) of the same sequence?
Its value is “majority of the donors”.

What about the “CD8+ T cells specific by IFNγ expression (ICS)” value (CD8+ T cells [3]; Donor C1, after 3 weekly aAPC stimulations, restimulated with peptide pulsed T2 cells 1:1) of the same sequence?
The value was 8%.

And the “geriatric donors with CD8+ T cells responding to the epitope” value (CD8+ T cells [3]; nine geriatric donors aged 65 and above, IFNγ ICS after 3 weeks of aAPC stimulation)?
Its value is “Donors E2, E3, E4, and E8 responded”.
